Experimental data as given in PubChem BioAssay AID1745856 (National Center for Advancing Translational Sciences (NCATS), 2022).
The list shows a part of the results, in another mix than the full data. Inconclusive results are not listed. Active and inactive are the calls of the source. Calls come from the whole dose curve.

Assay: Primary qHTS Assay for Foot and Mouth Disease Virus Antivirals against NCGC Sytravon and CBC Compound Libraries: Firefly Luciferase Signal; note: nearly all actives have a fitted effect of over 60% in size
Settings: FMDV antiviral cell assay; at 11.5 µM (top of the series)
% is set by controls: 0 for no effect and ±100 for the full control effect.

Structure (SMILES) | activity change, negative = inhibition
OCCSCCO | inactive: 11.2%
